pIC50: −log10 of the molar value.

The subject of this test is Trypanosoma brucei growth inhibition, luminescence. The experiment in a line: Trypanosoma brucei growth inhibition, luminescence (AID 1159562).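 Further: parasites grew with compound for 24 h before the luminescence read.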

One may read the pIC50 as −log10 of the IC50, conventionally taken in molar units. With `CC(C)(C)c1ccc(NC2(C(N)=O)CCN(Cc3ccccc3)CC2)cc1`, the pIC50 was 4.49.

The values are drawn from PubChem BioAssay AID1159562 (GlaxoSmithKline (GSK), 2015).
